Test results as given in patent publication US20190252037A1.
Where two headings read alike, the source gives them in different places.

Legend:
[1] = biological target: 4-repeats (28 amino acids) Ser-5 phosphorylated CTD peptide, fluorescently labelled with FAM at the N-terminal end
[2] = biological target: 4-repeats (28 amino acids) Ser-5 phosphorylated CTD peptide, fluorescently labelled with FAM at the N-terminal end; remark: listed apart in the source
[3] = biological target: 4-repeats (28 amino acids) Ser-5 phosphorylated CTD peptide, fluorescently labelled with FAM at the N-terminal end; remark: listed apart in the source
[4] = biological target: 4-repeats (28 amino acids) Ser-5 phosphorylated CTD peptide, fluorescently labelled with FAM at the N-terminal end; experiment: fluorescence anisotropy, FAM-labelled four-repeat SeP5 peptide

Substance | fold decrease of binding affinity against wild type FluB polymerase [1] | Fold change (KD against wild type FluB) [2] | Kd [2] | Kd [3] | Fold change (KD against wild type FluA) [2] | fold decrease of affinity against wild type bat FluA polymerase [4]
FluB polymerase with the PA double mutation K631A+R634A (site 1) | 2.5 fold | 2.6 fold | 7.5 µM |  |  | 
recombinant bat FluA polymerase with the PA double mutation K289A+R449A (site 2) |  |  |  | 3.6 µM |  | 
recombinant bat FluA polymerase with the PA double mutation K289A+R449A (site 2) (enzyme) |  |  |  |  | 3.9 fold | 4 fold
recombinant bat FluA polymerase with the PA double mutation K630A+R633A (site 1) (enzyme) |  |  | 6.9 µM |  | 7.7 fold | 7.5 fold
